Anti-infective test results gathered from many reports (values: NIAID ChemDB through PubChem).

Shared fields: whole-cell or culture tests; agent: HIV-1; endpoint: fold resistance

Fold resistance has wild type as its base. Rows are shuffled and stem from different studies. An empty or dashed field is not shown.

structure,mutations,strain or isolate,read by,cells,value
Cc1cn([C@H]2C[C@H](N=[N+]=[N-])[C@@H](CO)O2)c(=O)[nH]c1=O,RT-A98G K103R,MVP5180 (RT A98G K103R),,PBMC,1
CCc1c(Sc2ccccn2)n(COCc2ccccc2)c(=O)[nH]c1=O,RT-Y181C,IIIB,cytopathic effect / XTT,CEM + CEM-SS,117
c1ccc(C2OCc3nc4ccccc4n32)cc1,RT-K103N,TIBO R82150-resistant (RT K103N),cytopathic effect / MTT,CEM,>0.4
Cc1ccnc2c1NC(=O)c1cccnc1N2C1CC1,RT-V108I,NL4-3,cytopathic effect / XTT,CEM + CEM-SS,3
Cc1c(Cc2c(F)cccc2F)nc(NC2CCCC2)[nH]c1=O,RT-Y181C,,cytopathic effect / MTT,MT-4,42
Cc1occc1C(=S)Nc1ccc(Cl)c(/C=N/OC(C)(C)C)c1,RT-E138K,IIIB,syncytia,CEM,9.09
Fc1cccc(F)c1C1SCc2nc3ccccc3n21,RT-E138K,TSAO-resistant (RT E138K),cytopathic effect / MTT,CEM,1.24
CC(C)Nc1cccnc1N1CCN(C(=O)c2cc3ccccc3[nH]2)CC1,RT-C181I,IIIB,syncytia,CEM,95
Cc1cn([C@@H]2O[C@H](CO[Si](C)(C)C(C)(C)C)[C@]3(C(N)=CS(=O)(=O)N3C)[C@H]2O[Si](C)(C)C(C)(C)C)c(=O)n(C(=O)OC(C)(C)C)c1=O,RT-K103N,,cytopathic effect,CEM,>2.85
Cc1cn([C@H]2C[C@H](N=[N+]=[N-])[C@@H](CO)O2)c(=O)[nH]c1=O,,458 clinical isolates delavirdine-resistant,p24,PBMC,1
CC(C)=CCOc1cc(NC(=S)c2ccoc2C)ccc1Cl,RT-V106A,IIIB,cytopathic effect,CEM,2.5
Cc1cn([C@H]2C[C@H](N=[N+]=[N-])[C@@H](CO)O2)c(=O)[nH]c1=O,RT-Y181C,UC82-R (RT-Y181C),cytopathic effect / XTT,CEM + CEM-SS,1
Cc1cn([C@H]2C[C@H](N=[N+]=[N-])[C@@H](CO)O2)c(=O)[nH]c1=O,RT-V108I,NL4-3,cytopathic effect / XTT,CEM + CEM-SS,3.33
Cc1cn([C@H]2C[C@H](N=[N+]=[N-])[C@@H](CO)O2)c(=O)[nH]c1=O,RT-K65R,Site-directed mutant,cytopathic effect / XTT,MT-2,1.3
O=c1cc(Cc2c(F)cccc2F)nc(NC2CCCC2)[nH]1,RT-Y181C,,cytopathic effect / MTT,MT-4,10
Cc1occc1C(=S)Nc1ccc(Cl)c(/C=N/OC(C)(C)C)c1,RT-L74V,NL4-3 (RT L74V),cytopathic effect / XTT,CEM + CEM-SS,0.875
Cc1cn([C@H]2C[C@H](N=[N+]=[N-])[C@@H](CO)O2)c(=O)[nH]c1=O,RT-M41L T69ins L74V M184V L210W T215Y,52534-2 NRTI resistant recombinant,RT activity,PBMC,719
O=c1[nH]cnc2c1ncn2[C@H]1CC[C@@H](CO)O1,RT-A98G K103R Y181C,BCF01,,PBMC,<0.147
CC(C)Nc1cccnc1N1CCN(C(=O)c2cc3cc(NS(C)(=O)=O)ccc3[nH]2)CC1,,472 clinical isolates AZT-resistant,p24,PBMC,>100
O=c1cc(Cc2c(F)cccc2F)nc(SC2CCCC2)[nH]1,RT-Y181C,,cytopathic effect / MTT,MT-4,18
Cc1ccnc2c1NC(=O)c1cccnc1N2C1CC1,RT-D67G,HxB2D(RT-D67G),RT activity,MT-4,0.5
CC(C)OC(=O)OCOP(=O)(CO[C@H](C)Cn1cnc2c(N)ncnc21)OCOC(=O)OC(C)C,RT-M41L T69ins L74V M184V L210W T215Y,52534-2 NRTI resistant recombinant,RT activity,PBMC,4.2
CC(=O)c1ccccc1NC(C(N)=O)c1c(Cl)cccc1Cl,RT-Y181C,R88703-resistant IIIB (RT Y181C),p24,MT-4,>66.7
CCCCNc1nc(Cc2c(F)cccc2F)c(C)c(=O)[nH]1,RT-Y181C,,cytopathic effect / MTT,MT-4,70
CC[C@H]1C(=O)Nc2ccc(F)cc2N1C(=O)OC(C)C,RT-K103N,Y-1 (RT-K103N),cytopathic effect,CEM,51
Cc1cn([C@@H]2O[C@H](CO[Si](C)(C)C(C)(C)C)[C@@]3(NS(=O)(=O)C=C3N)[C@H]2O[Si](C)(C)C(C)(C)C)c(=O)[nH]c1=O,RT-K103N,,cytopathic effect,CEM,16.66
CC(C)Nc1cccnc1N1CCN(C(=O)c2cc3cc(NS(C)(=O)=O)ccc3[nH]2)CC1,RT-L100I,A-0 (RT-L100I),cytopathic effect,CEM,40
CC(C)=CCN1Cc2cc(Cl)cc3[nH]c(=S)n(c23)C[C@@H]1C,RT-A98G K103R,BCF11,,PBMC,>312.5
C/C=C/CSc1cc(NC(=S)c2ccsc2C)ccc1Cl,RT-V108I,Thiazolobenzimidazole-resistant (RT V108I),cytopathic effect / XTT,CEM + CEM-SS,4.5
COC(=O)N[C@H](C(=O)N[C@@H](Cc1ccccc1)[C@@H](O)CN(Cc1ccc(-c2ccccn2)cc1)NC(=O)[C@@H](NC(=O)OC)C(C)(C)C)C(C)(C)C,L10F V32I M46I I54M A71V I84V,NL4-3,p24 / luminescence,MT-4,210
CC(C)=CCN1Cc2cc(Cl)cc3[nH]c(=S)n(c23)C[C@@H]1C,RT-C181I,IIIB,syncytia,CEM,≥250
COc1ccc(S(=O)(=O)N(CC(C)C)C[C@@H](O)[C@H](Cc2ccc(OC)c(Cl)c2)NC(=O)O[C@H]2CO[C@H]3OCC[C@H]32)cc1,L23I E34Q K43I M46I I50L G51A L63P A71V V82A T91A,NL4-3,p24 / luminescence,MT-4,6
Nc1nc(NC2CC2)c2ncn([C@H]3C=C[C@@H](CO)C3)c2n1,RT-D67N T69N K70R M184V T215F K219Q,7295-1 NRTI resistant recombinant,RT activity,PBMC,6.1
Cc1ccnc2c1NC(=O)c1cccnc1N2C1CC1,RT-C181I,IIIB,syncytia,CEM,>625
Cc1ccnc2c1NC(=O)c1cccnc1N2C1CC1,RT-Y188C,NL4-3 (RT Y188C),cytopathic effect / XTT,CEM + CEM-SS,160
Cc1cn([C@@H]2O[C@H](CO[Si](C)(C)C(C)(C)C)[C@]3(C(N)=CS(=O)(=O)N3C)[C@H]2O[Si](C)(C)C(C)(C)C)c(=O)n(C)c1=O,RT-Y181C,,cytopathic effect,CEM,>100
CCc1c(Sc2ccccc2)n(COCc2ccccc2)c(=O)[nH]c1=O,RT-Y181C,IIIB,syncytia,CEM,27.3
CC(C)OC(=O)OCOP(=O)(CO[C@H](C)Cn1cnc2c(N)ncnc21)OCOC(=O)OC(C)C,RT-D67 K70 T215,1391-4 high AZT resistance (RT D67 K70 T215),p24,MT-2,0.284
O=c1[nH]cnc2c1ncn2[C@H]1CC[C@@H](CO)O1,RT-M41L D67N T69N K70R T215F K219E,7324-1 NRTI resistant recombinant,RT activity,PBMC,1.7
Nc1nc(=O)n([C@H]2CO[C@@H](CO)S2)cc1F,RT-D67G,HxB2D(RT-D67G),RT activity,MT-4,5.21
Nc1nc(=O)n([C@@H]2CS[C@H](CO)O2)cc1F,RT-K65R Y115F M184V,Site-directed mutant,cytopathic effect / XTT,MT-2,>210
Cc1cn([C@@H]2O[C@H](CO[Si](C)(C)C(C)(C)C)C3(OS(=O)(=O)C=C3N)[C@H]2O[Si](C)(C)C(C)(C)C)c(=O)n(C)c1=O,RT-E138K,IIIB,cytopathic effect,CEM,1330
Cc1cn([C@H]2C[C@H](N=[N+]=[N-])[C@@H](CO)O2)c(=O)[nH]c1=O,RT-K103N,NL4-3,cytopathic effect / XTT,CEM + CEM-SS,4
CCOCn1c(Cc2ccccc2)c(C(C)C)c(=O)[nH]c1=O,RT-Y181C,J-2 (RT-Y181C),cytopathic effect,CEM,27
Nc1ccn([C@H]2CO[C@@H](CO)S2)c(=O)n1,RT-D67G,HxB2D(RT-D67G),RT activity,MT-4,2.14
O=c1[nH]cnc2c1ncn2[C@H]1CC[C@@H](CO)O1,RT-M184V,126 BCH-189 (RT-M184V),p24,MT-4,2.95
CC(C)=CCOc1cc(NC(=S)c2ccsc2C)ccc1Cl,RT-L100I,IIIB,cytopathic effect,CEM,2
Cc1cn([C@H]2C[C@H](N=[N+]=[N-])[C@@H](CO)O2)c(=O)[nH]c1=O,RT-D67G,HxB2D(RT-D67G),RT activity,CBMC,0.636

Repeating the final 7 entries:

structure | mutations | strain or isolate | read by | cells | value
Cc1cn([C@@H]2O[C@H](CO[Si](C)(C)C(C)(C)C)C3(OS(=O)(=O)C=C3N)[C@H]2O[Si](C)(C)C(C)(C)C)c(=O)n(C)c1=O | RT-E138K | IIIB | cytopathic effect | CEM | 1330
Cc1cn([C@H]2C[C@H](N=[N+]=[N-])[C@@H](CO)O2)c(=O)[nH]c1=O | RT-K103N | NL4-3 | cytopathic effect / XTT | CEM + CEM-SS | 4
CCOCn1c(Cc2ccccc2)c(C(C)C)c(=O)[nH]c1=O | RT-Y181C | J-2 (RT-Y181C) | cytopathic effect | CEM | 27
Nc1ccn([C@H]2CO[C@@H](CO)S2)c(=O)n1 | RT-D67G | HxB2D(RT-D67G) | RT activity | MT-4 | 2.14
O=c1[nH]cnc2c1ncn2[C@H]1CC[C@@H](CO)O1 | RT-M184V | 126 BCH-189 (RT-M184V) | p24 | MT-4 | 2.95
CC(C)=CCOc1cc(NC(=S)c2ccsc2C)ccc1Cl | RT-L100I | IIIB | cytopathic effect | CEM | 2
Cc1cn([C@H]2C[C@H](N=[N+]=[N-])[C@@H](CO)O2)c(=O)[nH]c1=O | RT-D67G | HxB2D(RT-D67G) | RT activity | CBMC | 0.636